In publication PMC9312377:

What was measured:
Assay in all cases: Modified thermofluor assay, BXA-rPAN thermal stabilization
[1] = target: recombinant A(H1N1)pdm09 PAN E23G (Influenza A virus, UniProt C3W5S0, DEL51-57/DEL61-72/E23G/E59G); settings: Panel A, E23G, 37uM BXA
[2] = target: recombinant A(H1N1)pdm09 PAN E23G+I38T (Influenza A virus, UniProt C3W5S0, DEL51-57/DEL61-72/E23G/E59G/I38T); settings: for SYPRO Orange signal: 37uM BXA
[3] = test system: recombinant A(H3N2) PAN I38T

O=C1c2c(O)c(=O)ccn2N([C@@H]2c3ccccc3SCc3c2ccc(F)c3F)[C@@H]2COCCN12
SYPRO Orange signal ([1]; 98 °C): 127272 RFU and 135311 RFU and 137303 RFU
SYPRO Orange signal ([1]; 99 °C): 118086 RFU and 122507 RFU and 134718 RFU
SYPRO Orange signal ([2]; 30 °C): 2647.88 RFU and 2395.74 RFU and 3665.54 RFU
SYPRO Orange signal ([2]; 31 °C): 3328.75 RFU and 3123.52 RFU and 3637.27 RFU
SYPRO Orange signal ([2]; 32 °C): 3673.79 RFU and 3125.55 RFU and 4171.85 RFU
SYPRO Orange signal ([2]; 33 °C): 4101.05 RFU and 3060.34 RFU and 3951.81 RFU
SYPRO Orange signal ([2]; 34 °C): 4576.19 RFU and 3343.4 RFU and 4630.66 RFU
SYPRO Orange signal ([2]; 35 °C): 4607.68 RFU and 3528.86 RFU and 4418.86 RFU
SYPRO Orange signal ([2]; 36 °C): 4818.6 RFU and 3761.07 RFU and 4869.73 RFU
SYPRO Orange signal ([2]; 37 °C): 4633.54 RFU and 3616.94 RFU and 5063.77 RFU
SYPRO Orange signal ([2]; 38 °C): 4675.78 RFU and 3340.54 RFU and 4704.53 RFU
SYPRO Orange signal ([2]; 39 °C): 4398.92 RFU and 3535.53 RFU and 4813.75 RFU
SYPRO Orange signal ([2]; 40 °C): 4195.88 RFU and 3721.04 RFU and 4878.33 RFU
SYPRO Orange signal ([2]; 41 °C): 4474.6 RFU and 4118.37 RFU and 5056.58 RFU
SYPRO Orange signal ([2]; 42 °C): 4431.7 RFU and 4045.57 RFU and 4834.89 RFU
SYPRO Orange signal ([2]; 43 °C): 4232.52 RFU and 3855.53 RFU and 4998.06 RFU
SYPRO Orange signal ([2]; 44 °C): 4318.74 RFU and 3962.04 RFU and 4565.28 RFU
SYPRO Orange signal ([2]; 45 °C): 4441.97 RFU and 4486.34 RFU and 4844.62 RFU
SYPRO Orange signal ([2]; 46 °C): 4211.77 RFU and 4260.63 RFU and 4968.21 RFU
SYPRO Orange signal ([2]; 47 °C): 4373.79 RFU and 4230.69 RFU and 5223.57 RFU
SYPRO Orange signal ([2]; 48 °C): 4498.26 RFU and 4475.58 RFU and 5425.59 RFU
SYPRO Orange signal ([2]; 49 °C): 4340.35 RFU and 4714.02 RFU and 5268.69 RFU
SYPRO Orange signal ([2]; 50 °C): 4485.42 RFU and 5458.05 RFU and 5615.3 RFU
SYPRO Orange signal ([2]; 51 °C): 4604.33 RFU and 5107.27 RFU and 5354.22 RFU
SYPRO Orange signal ([2]; 52 °C): 5022.8 RFU and 5726.6 RFU and 5626.72 RFU
SYPRO Orange signal ([2]; 53 °C): 4693.9 RFU and 5357.42 RFU and 5723.4 RFU
SYPRO Orange signal ([2]; 54 °C): 5145.37 RFU and 5267.66 RFU and 5696.12 RFU
SYPRO Orange signal ([2]; 55 °C): 5092.31 RFU and 5640.53 RFU and 5805.8 RFU
SYPRO Orange signal ([2]; 56 °C): 5376.44 RFU and 5740.37 RFU and 6240.29 RFU
SYPRO Orange signal ([2]; 57 °C): 5795.89 RFU and 6125.1 RFU and 6368.47 RFU
SYPRO Orange signal ([2]; 58 °C): 6695.88 RFU and 6816.03 RFU and 6922.68 RFU
SYPRO Orange signal ([2]; 59 °C): 7506.28 RFU and 7927.03 RFU and 8327.92 RFU
SYPRO Orange signal ([2]; 60 °C): 8418.89 RFU and 8998.05 RFU and 9121.6 RFU
SYPRO Orange signal ([2]; 61 °C): 10127.5 RFU and 10289.3 RFU and 10665.8 RFU
SYPRO Orange signal ([2]; 62 °C): 13439.7 RFU and 13687 RFU and 13903.4 RFU
SYPRO Orange signal ([2]; 63 °C): 18625.9 RFU and 17795.7 RFU and 19339.8 RFU
SYPRO Orange signal ([2]; 64 °C): 28651.8 RFU and 27296.2 RFU and 29478.9 RFU
SYPRO Orange signal ([2]; 65 °C): 45763 RFU and 43603.6 RFU and 46881 RFU
SYPRO Orange signal ([2]; 66 °C): 72246.9 RFU and 67949.6 RFU and 73557.6 RFU
Tm (°C) with BXA ([2]; A(H1N1)pdm09 PAN E23G+I38T 2 μM, BXA 37 μM): 67 °C and 67.0 ± 0.1 °C
ΔTm (°C) ([2]; A(H1N1)pdm09 PAN E23G+I38T, DMSO vs BXA 37 μM): 13.1 ± .3 °C
SYPRO Orange signal ([2]; Panel A, E23G+I38T, 72 °C): 239649 RFU and 222711 RFU and 238879 RFU
SYPRO Orange signal ([2]; Panel A, E23G+I38T, 73 °C): 241154 RFU and 224478 RFU and 240878 RFU
SYPRO Orange signal ([2]; Panel A, E23G+I38T, 74 °C): 240519 RFU and 224874 RFU and 241335 RFU
SYPRO Orange signal ([2]; Panel A, E23G+I38T, 75 °C): 238176 RFU and 223710 RFU and 241893 RFU
SYPRO Orange signal ([2]; Panel A, E23G+I38T, 76 °C): 235365 RFU and 222482 RFU and 241290 RFU
SYPRO Orange signal ([2]; Panel A, E23G+I38T, 77 °C): 231389 RFU and 220568 RFU and 239843 RFU
SYPRO Orange signal ([2]; Panel A, E23G+I38T, 78 °C): 226714 RFU and 217929 RFU and 237837 RFU
SYPRO Orange signal ([2]; Panel A, E23G+I38T, 79 °C): 221758 RFU and 214594 RFU and 233932 RFU
SYPRO Orange signal ([2]; Panel A, E23G+I38T, 80 °C): 216762 RFU and 210971 RFU and 230989 RFU
SYPRO Orange signal ([2]; Panel A, E23G+I38T, 81 °C): 211784 RFU and 207261 RFU and 227067 RFU
SYPRO Orange signal ([2]; Panel A, E23G+I38T, 82 °C): 206502 RFU and 202939 RFU and 220907 RFU
SYPRO Orange signal ([2]; Panel A, E23G+I38T, 83 °C): 200896 RFU and 198763 RFU and 216642 RFU
SYPRO Orange signal ([2]; Panel A, E23G+I38T, 84 °C): 195654 RFU and 193947 RFU and 211728 RFU
SYPRO Orange signal ([2]; Panel A, E23G+I38T, 85 °C): 190074 RFU and 189227 RFU and 206322 RFU
SYPRO Orange signal ([2]; Panel A, E23G+I38T, 86 °C): 185495 RFU and 184506 RFU and 203327 RFU
SYPRO Orange signal ([2]; Panel A, E23G+I38T, 87 °C): 180794 RFU and 180062 RFU and 199069 RFU
SYPRO Orange signal ([2]; Panel A, E23G+I38T, 88 °C): 173738 RFU and 174159 RFU and 194724 RFU
SYPRO Orange signal ([2]; Panel A, E23G+I38T, 89 °C): 171839 RFU and 167967 RFU and 190146 RFU
SYPRO Orange signal ([2]; Panel A, E23G+I38T, 90 °C): 166322 RFU and 162300 RFU and 185310 RFU
SYPRO Orange signal ([2]; Panel A, E23G+I38T, 91 °C): 162027 RFU and 158294 RFU and 182212 RFU
SYPRO Orange signal ([2]; Panel A, E23G+I38T, 92 °C): 158352 RFU and 152530 RFU and 178458 RFU
SYPRO Orange signal ([2]; Panel A, E23G+I38T, 93 °C): 153088 RFU and 152064 RFU and 175597 RFU
SYPRO Orange signal ([2]; Panel A, E23G+I38T, 94 °C): 144006 RFU and 146726 RFU and 171431 RFU
SYPRO Orange signal ([2]; Panel A, E23G+I38T, 95 °C): 127942 RFU and 145249 RFU and 160184 RFU
SYPRO Orange signal ([2]; Panel A, E23G+I38T, 96 °C): 128529 RFU and 139589 RFU and 149386 RFU
SYPRO Orange signal ([2]; Panel A, E23G+I38T, 97 °C): 122484 RFU and 133504 RFU and 138067 RFU
SYPRO Orange signal ([2]; Panel A, E23G+I38T, 98 °C): 114178 RFU and 124290 RFU and 129784 RFU
SYPRO Orange signal ([2]; Panel A, E23G+I38T, 99 °C): 107716 RFU and 118936 RFU and 123851 RFU
Tm (°C) with BXA ([3]; A(H3N2) PAN I38T 2 μM, BXA 37 μM): 70 °C and 70.0 ± 0.1 °C
ΔTm (°C) ([3]; A(H3N2) PAN I38T, DMSO vs BXA 37 μM): 16 °C and 16.1 ± 0.2 °C

“And” between values parts separate entries of the source, which are not always exact repeats. Equal values may be shown once.
